Reference: patent US20150050244A1, “Entomopathogenic Fungi and Uses Thereof” (priority 2008, published 2015)

System: green pea aphid (Myzus persicae)
Experiment: Aphid mortality on leaf discs, Potters tower, K4B3 extract versus beauvericin
Assay type: in vivo
Conditions: 2 mL sprayed; 48 hours; beauvericin 50 μg/mL
Protocol: Table 7 below presents mortality observed amongst green pea aphid (Myzus persicae) present on Asian brassica leaf discs. Asian brassica leaf discs were placed on 1% water agar in Petri dishes. 2 mL of K4B3 extract, beauvericin solution (50 μg/mL, supplemented with 2.5 mL millennium oil/L), and a water control was sprayed using the Potters tower. The sprayed Petri dishes were placed dorsal side down on paper towels to allow surfaces to dry. Five replicates of each treatment were done. Mortality was assessed 48 hours after application.

beauvericin
% Mortality Adult: 5% | % Mortality Juv.: 7%
